Measured values from several laboratories, pooled; numbers as filed in NIAID ChemDB.

All rows: growth or infection tests; agent: Herpes simplex virus 1

Rows are shuffled and stem from different studies. Inhibition is in % at the dose shown (toxicity tests: loss of growth or viability). ECn is the concentration giving n% inhibition of infection, replication or growth. Blank or dashed fields: not listed here.

smiles | strain or isolate | dose | method | endpoint | cells | value
Nc1ncnc2c1ncn2CCOCP(=O)(O)O | PFA-resistant-2 | - | virus yield | EC90 | HeLa | >1000 µM
Nc1ccn(C[C@@H](CO)OCP(=O)(O)O)c(=O)n1 | KOS BVDU-resistant | - | cytopathic effect | EC50 | HEL | 0.13 µg/mL
CCOC(=O)P(=O)(OCCOCn1cnc2c(=O)[nH]c(N)nc21)OC(C)C | L2/R | - | cytopathic effect | EC95 | VERO | >298 µM
CCCCC/C=C/C/C=C/CCCCCCCCO | KOS | - | cytopathic effect | EC50 | HeLa | >200 µg/mL
O=c1c2ccccc2[se]n1-c1cc([N+](=O)[O-])ccn1 | - | - | - | MIC | - | 5 µg/mL
O=c1[nH]c(=O)n([C@H]2C[C@H](O)[C@@H](CO)O2)cc1I | TK- | 8.4 µM | cytopathic effect | inhibition | VERO | >25%
CCCCCCCCc1cc2cn(CC=C(CO)CO)c(=O)nc2o1 | F | - | plaque count | EC90 | VERO | 53.8 µM
O=c1c2cccnc2[se]n1N(c1ccccc1)c1cc(Cl)ccn1 | - | - | - | MIC | - | 1 µg/mL
C[C@@H]1CC[C@@]2(OC1)O[C@H]1[C@@H](O)[C@H]3[C@@H]4CC[C@H]5C[C@@H](O[C@@H]6O[C@H](CO)[C@H](O[C@@H]7O[C@H](CO)[C@@H](O)[C@H](O[C@@H]8OC[C@@H](O)[C@H](O)[C@H]8O)[C@H]7O[C@@H]7O[C@H](CO)[C@H](O)[C@H](O[C@@H]8O[C@H](CO)[C@@H](O)[C@H](O)[C@H]8O)[C@H]7O)[C@H](O)[C@H]6O)[C@H](O)C[C@]5(C)[C@H]4CC[C@]3(C)[C@H]1[C@@H]2C | KOS | - | cytopathic effect | EC50 | HeLa | >2 µg/mL
Nc1ccn([C@@H]2CS[C@H](CO)O2)c(=O)n1 | F | - | plaque count | EC90 | VERO | >100 µM
O=C(O)CP(=O)(O)O | KOS HPMPC-resistant | - | cytopathic effect | EC50 | HEL | 9.3 µg/mL
NC(=O)c1cn([C@@H]2C[C@H](CO)C[C@H]2O)nn1 | F | - | plaque count | EC90 | VERO | >100 µM
O=c1c2cccnc2[se]n1-c1ccc(Cl)cc1 | - | - | - | MIC | - | 1 µg/mL
CCOC(=O)P(=O)(O)OC[C@H]1O[C@@H](n2cc(CCCl)c(=O)[nH]c2=O)C[C@@H]1O | BRAND | 23.4 µM | cytopathic effect | inhibition | VERO | >25%
O=c1[nH]c(=O)n(COCCO)cc1C#Cc1ccccc1 | F | - | plaque count | EC90 | VERO | >100 µM
O=C(O)P(=O)(O)O | - | - | plaque count | EC90 | GMK | 19.45 µg/mL
COC(=O)c1cn([C@@H]2C[C@H](CO)C[C@H]2O)nn1 | F | - | plaque count | EC90 | VERO | >100 µM
COC(=O)P(=O)(O)OC[C@H]1O[C@@H](n2cc(CCCl)c(=O)[nH]c2=O)C[C@@H]1O | TK- | 242 µM | cytopathic effect | inhibition | VERO | >25%
CO[C@@H]1[C@@H](O[C@@H]2O[C@H](C)[C@@H](O[C@H]3C[C@@](C)(O)[C@@H](OC(=O)CC(C)C)[C@H](C)O3)[C@H](N(C)C)[C@H]2O)[C@@H](CC=O)C[C@@H](C)[C@@H](O)/C=C/C=C/C[C@@H](C)OC(=O)C[C@H]1OC(C)=O | KOS | - | cytopathic effect | EC50 | HeLa | >200 µg/mL
Nc1nc2c(ncn2COC(CO)CO)c(=O)[nH]1 | KOS PMEA-resistant | - | cytopathic effect | EC50 | HEL | 0.004 µg/mL
CCOC(=O)P(=O)(OC)OC[C@H]1O[C@@H](n2cc(CCCl)c(=O)[nH]c2=O)C[C@@H]1O | TK- | 68.1 µM | cytopathic effect | inhibition | VERO | >25%
O=C(O)CP(=O)(O)O | 11-Aug | 500 µM | plaque count | inhibition | SIRC | >99.9%
Nc1ccn(C[C@@H](CO)OCP(=O)(O)O)c(=O)n1 | KOS | - | cytopathic effect | EC50 | U373-MG | 8.75 µg/mL
O=c1c2cccnc2[se]n1C1CCCCC1 | - | - | - | MIC | - | 0.8 µg/mL
CCCNC(=O)Oc1ccccc1[Se][Se]c1ccccc1OC(=O)NCCC | - | - | - | MIC | - | >1000 µg/mL
O=C(CP(=O)(O)O)OC[C@H]1O[C@@H](n2cc(CCCl)c(=O)[nH]c2=O)C[C@@H]1O | TK- | 72.7 µM | cytopathic effect | inhibition | VERO | >25%
Nc1ncnc2c1ncn2C[C@@H](CO)OCP(=O)(O)O | C137-101 (TK-) | - | cytopathic effect | EC50 | - | 1 µg/mL
C[n+]1cccc(-n2[se]c3ccccc3c2=O)c1 | - | - | - | MIC | - | 20 µg/mL
O=C(O)P(=O)(O)O | KJ502 | 100 µM | plaque count | inhibition | SIRC | 92%
Nc1ncnc2c1ncn2CCOCP(=O)(O)O | KOS PMEDAP-resistant | - | cytopathic effect | EC50 | HEL | 103 µg/mL
Nc1nc2c(ncn2COCCO)c(=O)[nH]1 | F | - | plaque count | EC90 | VERO | 0.69 µM
NS(=O)(=O)c1ccc(NC(=O)CCC[Se][Se]CCCC(=O)Nc2ccc(S(N)(=O)=O)cc2)cc1 | - | - | - | MIC | - | >1000 µg/mL
C[n+]1cccc2c(=O)n(-c3ccccn3)[se]c21 | - | - | - | MIC | - | 400 µg/mL
CCCN1[Se]c2ccccc2NC1=O | - | - | - | MIC | - | 400 µg/mL
COP(=O)(CC(=O)OC[C@H]1O[C@@H](n2cc(CCCl)c(=O)[nH]c2=O)C[C@@H]1O)OC | TK- | 227 µM | cytopathic effect | inhibition | VERO | >25%

A second listing of 4 rows from above:

| smiles | strain or isolate | dose | method | endpoint | cells | value |
|---|---|---|---|---|---|---|
| O=c1[nH]c(=O)n(COCCO)cc1C#Cc1ccccc1 | F | - | plaque count | EC90 | VERO | >100 µM |
| C[C@@H]1CC[C@@]2(OC1)O[C@H]1[C@@H](O)[C@H]3[C@@H]4CC[C@H]5C[C@@H](O[C@@H]6O[C@H](CO)[C@H](O[C@@H]7O[C@H](CO)[C@@H](O)[C@H](O[C@@H]8OC[C@@H](O)[C@H](O)[C@H]8O)[C@H]7O[C@@H]7O[C@H](CO)[C@H](O)[C@H](O[C@@H]8O[C@H](CO)[C@@H](O)[C@H](O)[C@H]8O)[C@H]7O)[C@H](O)[C@H]6O)[C@H](O)C[C@]5(C)[C@H]4CC[C@]3(C)[C@H]1[C@@H]2C | KOS | - | cytopathic effect | EC50 | HeLa | >2 µg/mL |
| CO[C@@H]1[C@@H](O[C@@H]2O[C@H](C)[C@@H](O[C@H]3C[C@@](C)(O)[C@@H](OC(=O)CC(C)C)[C@H](C)O3)[C@H](N(C)C)[C@H]2O)[C@@H](CC=O)C[C@@H](C)[C@@H](O)/C=C/C=C/C[C@@H](C)OC(=O)C[C@H]1OC(C)=O | KOS | - | cytopathic effect | EC50 | HeLa | >200 µg/mL |
| Nc1ccn(C[C@@H](CO)OCP(=O)(O)O)c(=O)n1 | KOS BVDU-resistant | - | cytopathic effect | EC50 | HEL | 0.13 µg/mL |